Consider one sequence from paper PMC9913434.

Sequences of proteins named here, by UniProt entry; tags and fusion partners are left off. A change or cut given only in a name is not applied to a line headed by its entry.
UniProt P0AE88: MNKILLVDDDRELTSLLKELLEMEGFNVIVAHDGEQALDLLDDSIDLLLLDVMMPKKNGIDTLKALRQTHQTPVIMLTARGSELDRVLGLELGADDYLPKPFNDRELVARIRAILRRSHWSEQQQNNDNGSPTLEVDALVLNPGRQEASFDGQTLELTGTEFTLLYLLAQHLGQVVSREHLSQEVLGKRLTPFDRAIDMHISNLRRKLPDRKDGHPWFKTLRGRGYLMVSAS

The exact form of at least one protein or probe is not confirmed.

This series has as its target His6-CpxR (Escherichia coli (avian pathogenic, APEC40)) (UniProt P0AE88). Kind of series: EMSA. To be noted: shift at 1, 2 and 4 uM CpxR, 200 fM probe, unlabeled probe 2 pM as competition control, 5x binding buffer ([…], 30 min at room temperature, recombinant protein, residues 1-232, label: biotin (forward primer p-emrKY-biotin-f), probe letters rebuilt from the primers and the genome. In general terms: A gel shift assay detects complexes by their altered migration in electrophoresis.

Consider “TCTCCCTTCTCCCTGTAGTAATACAGACATAAGGCGTCATCTCATTTTCTCAATAAAAATAAGAAAATCTGAGCTTCCTTTAAGATAATTCGACAAGTATACCATATAAATAGTCGGCATAAATGAAATGTCAACAATAAAATCAGGGATTGTACCGATGATTTATAGTTTCAAGTTGGCACTATAAGTCTTCTTACTAATCCTACAGGCGTAAGAATTGTATTGCAAAAGCCACGGTTTAGTCCTCTGTTGTTTTTTTTGCACCTCATTTAAATTAGGCCTCCAACGTTCCTGGGATAATGTGCAACACATGCACTGTGTTTGATATGAAGAATGAATGCTCTTTTCATTCAATTCATAAATTTCATCTATGAGAAATGAGAGATAATA (double strand) [emrKY promoter]”, for which the binding result was “binds”.
